Pooled drug test results. Numbers come from NIAID ChemDB, via PubChem.

All rows: tests in culture; agent: Hepatitis C virus; endpoint: inhibition

Neighbouring rows are from separate reports.

structure,strain,cell line,tested at,method,result
O=C1c2c(O)cc(O)cc2O[C@H](c2ccc(O)c(O)c2)[C@H]1O,G1,Huh7,5 µM,PCR,43%
Nc1nc2c(ncn2[C@@H]2O[C@H](CO)[C@@H](O)[C@H]2O)c(=O)[nH]1,,Huh7,50 µM,replicon,86.5%
O=c1cc(Sc2cc(Cl)ccc2Cl)c2cc(F)ccc2o1,,Ava5,10 µM,,37%
CCCCn1cnc2c(c(CC#N)nn2-c2ccccc2)c1=N,sg1b,Huh7-1,50 µM,PCR,<75%
CN(C)CCCn1cc(C2=C(c3c[nH]c4ccccc34)C(=O)NC2=O)c2ccccc21,,Huh7.5.1,1 µM,,40%
O=c1oc2ccccc2c(Sc2ccc(Br)cc2)c1Sc1ccc(F)cc1,,Ava5,10 µM,,47.5%
CC[C@H](C)C(=O)O[C@H]1C[C@@H](C)C=C2C=C[C@H](C)[C@H](CC[C@@H]3C[C@@H](O)CC(=O)O3)[C@H]21,,HUH7-K2040,10 µM,,0%
Nc1nc2c(ncn2[C@H]2C[C@H](O)[C@@H](CO)O2)c(=O)[nH]1,,Huh7,50 µM,replicon,89.3%
Clc1ccc(Cn2c(CN3CCCC3)nc3ccccc32)cc1,1b Con1,Huh7,17.5 µM,luciferase / replicon,73.58%
O=c1cc(Sc2c(Cl)cccc2Cl)c2cc(F)ccc2o1,,Ava5,10 µM,,92%
Cc1cc(N2CCCCC2)nc2ccc(Cc3ccc4nc(N5CCCCC5)cc(C)c4c3)cc12,sg1a (H77),Huh7-1,50 µM,PCR,<75%
O=c1cc(Sc2ccc(F)cc2Cl)c2cc(F)ccc2o1,,Ava5,10 µM,,34.5%
CCCC(NC(=O)[C@@H]1C2CCC(=O)C2CN1C(=O)[C@@H](NC(=O)[C@@H](NC(=O)c1cnccn1)C(C)C)C(C)C)C(=O)C(=O)Nc1ccccc1,,Huh7,25 µM,replicon,<0%
O=C1NC(=O)c2c1c1c3ccccc3[nH]c1c1[nH]c3ccccc3c21,,Huh7.5.1,1 µM,,78%
COc1ccc2c(O[C@@H]3C[C@H]4C(=O)N[C@]5(C(=O)NS(=O)(=O)C6CC6)C[C@H]5/C=C\CCCCN(C)C(=O)[C@@H]4C3)cc(-c3nc(C(C)C)cs3)nc2c1C,1b,Huh7,0.006 µM,luciferase / replicon,91.86%
C[C@@]1(O)[C@H](O)[C@@H](CO)O[C@H]1n1ccc2c(N)ncnc21,,Hep3B-T5B,2 µg/mL,MTT,0.13%
O=c1c(O)c(-c2ccc(O)c(O)c2)oc2cc(O)cc(O)c12,G1,Huh7,1 µM,PCR,57%
CC(=O)OC1CCC2(C)C(CCC3C2CC(=O)C2(C)C3CC(N3CC3)C2C(C)=O)C1,sg1b,Huh7-1,50 µM,PCR,<75%
Nc1ccn([C@@H]2O[C@H](CO)[C@@H](O)[C@H]2O)c(=O)n1,,Huh7,50 µM,replicon,40%
CCCCCCCCCCCCCCCc1cccc(O)c1C(=O)O,JFH-1 (gt 2a),Huh7,5 µM,luciferase,40%
CC(=N/O)/C(C)=N/O,sg2a (JFH),Huh7-1,50 µM,PCR,<75%
C[C@@]1(O)[C@H](O)[C@@H](CO)O[C@H]1c1c[nH]c2c(N)ncnc12,,Hep3B-T5B,10 µg/mL,MTT,1.01%
O=c1cc(Sc2ccccc2Cl)c2cc(F)ccc2o1,,Ava5,10 µM,,10.5%
Cc1cc(N2CCOCC2)nc2ccc(Cc3ccc4nc(N5CCOCC5)cc(C)c4c3)cc12,sg1b,Huh7-1,50 µM,PCR,<75%
CCCC(NC(=O)[C@@H]1C2CCC(F)(F)C2CN1C(=O)[C@@H](NC(=O)[C@@H](NC(=O)c1cnccn1)C(C)C)C(C)C)C(=O)C(=O)NC1CC1,,Huh7,25 µM,replicon,64%
Cc1cc(C)cc(Sc2c(Sc3cccc(Cl)c3)c3ccccc3oc2=O)c1,,Ava5,10 µM,,76.5%

An empty or dashed field is not shown. Percent inhibition refers to the dose given; in toxicity tests it is the harm to the cells.